Compound potency records, mixed from different reports. Data source: NIAID ChemDB in PubChem.

Common to all: whole-cell or culture tests

Percent inhibition refers to the dose given; in toxicity tests it is the harm to the cells. Rows are shuffled and stem from different studies. Blank or dashed fields: not listed here. ECn is the concentration giving n% inhibition of infection, replication or growth. MIC50, MIC90 and the like: level of inhibition, or share of isolates inhibited. Fold resistance has wild type as its base.

CN(C)c1cc(NC(=O)CNC(C)(C)C)c(O)c2c1C[C@H]1C[C@H]3[C@H](N(C)C)C(=O)C(C(N)=O)=C(O)[C@@]3(O)C(=O)C1=C2O ; organism: Enterococcus faecalis ; strain or isolate: 20 strains (vancomycin-susceptible) ; read-out: MIC50 ; value: 0.12 µg/mL
Nc1nc2c(ncn2COC(CO)CO)c(=O)[nH]1 ; organism: Mouse cytomegalovirus ; strain or isolate: SMITH (WILD TYPE) ; cells: HFF ; method: plaque count ; read-out: EC50 ; value: 27.8 µM
Cc1cc(CCCCCOc2cc(Cl)c(-c3nnco3)c(Cl)c2)on1 ; organism: Rhinovirus ; strain or isolate: Serotype 22 ; read-out: MIC80 ; value: 0.45 µg/mL
CC[C@H]1OC(=O)[C@H](C)[C@@H](O[C@H]2C[C@@](C)(OC)[C@@H](OC(C)=O)[C@H](C)O2)[C@H](C)[C@@H](O[C@@H]2O[C@H](C)C[C@H](N(C)C)[C@H]2OC(=O)NNCCCCc2ccccc2)C(C)(O)C[C@@H](C)/C(=N\OCCCC2CCCCC2)[C@H](C)[C@@H](O)[C@]1(C)O ; organism: Mycobacterium avium complex ; strain or isolate: 20039 (clarithromycin-susceptible) ; read-out: MIC ; value: 1.56 µg/mL
CN[C@H]1CC[C@@H](c2ccc(Cl)c(Cl)c2)c2ccccc21 ; organism: Cryptococcus neoformans ; strain or isolate: Bt81 ; method: broth dilution ; read-out: MIC90 ; value: 5 µg/mL
CC[C@H]1OC(=O)[C@H](C)[C@@H](OC(=O)CCc2ccccc2)[C@H](C)[C@@H](O[C@@H]2O[C@H](C)C[C@H](N(C)C)[C@H]2O)C(C)(O)C[C@@H](C)/C(=N\OCCCOc2ccccc2)[C@H](C)[C@@H](O)[C@]1(C)O ; organism: Mycobacterium avium complex ; strain or isolate: 20096 (clarithromycin-resistant) ; read-out: MIC ; value: 3.13 µg/mL
CCNC(=O)[C@@H](NC(=O)Cc1ccccc1)[C@@H]1N[C@@H](C(=O)NCCNC(=O)[C@@H]2N[C@@H]([C@H](NC(=O)Cc3ccccc3)C(=O)NCC)SC2(C)C)C(C)(C)S1 ; organism: Streptococcus pneumoniae ; strain or isolate: 595 strains ; read-out: MIC90 ; value: 0.125 µg/mL
Nc1cc(S(=O)(=O)[O-])cc2cc(S(=O)(=O)[O-])ccc12 ; organism: Herpes simplex virus ; cells: Human conjunctiva cells ; method: cytopathic effect ; read-out: inhibition ; dose: 10 µg/mL ; value: 0%
O=C(O)P(=O)(O)O ; organism: Mouse cytomegalovirus ; strain or isolate: SMITH (WILD TYPE) ; cells: HFF ; method: plaque count ; read-out: EC50 ; value: 195 µM
Cc1cc(CCCCCCCOc2ccc(-c3nnc(C)o3)cc2)on1 ; organism: Rhinovirus ; strain or isolate: serotype 2 1A 1B 6 14 21 22 15 25 30 50 67 89 86 41 ; read-out: MIC50 ; value: 2.3 µg/mL
CC[C@H]1OC(=O)[C@H](C)[C@@H](OC(=O)Cc2cccnc2)[C@H](C)[C@@H](O[C@@H]2O[C@H](C)C[C@H](N(C)C)[C@H]2O)C(C)(O)C[C@@H](C)/C(=N\OCCCOc2ccccc2)[C@H](C)[C@@H](O)[C@]1(C)O ; organism: Mycobacterium avium complex ; strain or isolate: 20096 (clarithromycin-resistant) ; read-out: MIC ; value: 6.25 µg/mL
O=S(=O)(O)c1ccc2ccc(S(=O)(=O)O)cc2c1 ; organism: Herpes simplex virus ; cells: Human amnion AV3 cells ; method: cytopathic effect ; read-out: inhibition ; dose: 5 µg/mL ; value: 0%
Nc1nc2c(ncn2COC(CO)CO)c(=O)[nH]1 ; organism: Rhesus cytomegalovirus ; strain or isolate: 68-1 ; cells: HET ; method: plaque count ; read-out: EC50 ; value: 7 µM
OC[C@H]1O[C@@H](n2c(Br)nc3cc(Cl)c(Cl)cc32)[C@H](O)[C@@H]1O ; organism: Mouse cytomegalovirus ; strain or isolate: Smith (resistant) ; cells: HFF ; method: plaque count ; read-out: EC50 ; value: 34 µM
Nc1nc2c(ncn2COC(CO)CO)c(=O)[nH]1 ; organism: Simian varicella-zoster virus ; cells: VERO ; method: plaque count ; read-out: EC50 ; value: 18 µM
CC(C)Nc1nc2cc(Cl)c(Cl)cc2n1[C@H]1O[C@@H](CO)[C@H](O)[C@@H]1O ; organism: Human cytomegalovirus ; strain or isolate: 2916RAE (LEU397ARG) ; cells: MRC-5 ; method: hybridisation ; read-out: EC50 ; value: 2.7 µM
COc1c(N2C[C@@H]3CCCN[C@@H]3C2)c(F)cc2c(=O)c(C(=O)O)cn(C3CC3)c12 ; organism: Streptococcus pneumoniae ; strain or isolate: 2451 isolates (penicillin-susceptible) ; read-out: MIC90 ; value: 0.22 µg/mL
C=CCc1ccc(O)c(OC)c1 ; organism: Candida tropicalis ; strain or isolate: 2778 ; method: turbidity ; read-out: MIC90 ; value: 500 µg/mL
CC[C@H]1OC(=O)[C@H](C)C(=O)[C@H](C)[C@@H](O[C@@H]2O[C@H](C)C[C@H](N(C)C)[C@H]2O)[C@](C)(OC)C[C@@H](C)C(=O)[C@H](C)[C@H]2N(CCCCn3cnc(-c4cccnc4)c3)C(=O)O[C@]12C ; organism: Haemophilus influenzae ; strain or isolate: 434 strains ; read-out: MIC50 ; value: 1 µg/mL
Cc1cc(CCCCCOc2cc(Cl)c(-c3nnc(C)o3)c(Cl)c2)on1 ; organism: Rhinovirus ; strain or isolate: Serotype 50 ; read-out: MIC80 ; value: 0.041 µg/mL
CCCCCCCCCCCCC(=O)O[C@H]1[C@H](C)[C@@H](O[C@@H]2O[C@H](C)C[C@H](N(C)C)[C@H]2O)C(C)(O)C[C@@H](C)/C(=N\OCCCOc2ccccc2)[C@H](C)[C@@H](O)[C@](C)(O)[C@@H](CC)OC(=O)[C@@H]1C ; organism: Mycobacterium avium complex ; strain or isolate: 20092 (clarithromycin-resistant) ; read-out: MIC ; value: >50 µg/mL
Cn1cc(C(=O)NCc2ccc(Cl)cc2)c(=O)c2cc(CN3CCOCC3)ccc21 ; organism: Simian varicella-zoster virus ; cells: VERO ; method: plaque count ; read-out: EC50 ; value: 2.7 µM
Cc1ccc2oc(=S)n(-c3cccc(F)c3)c(=S)c2c1 ; organism: Mycobacterium kansasii ; strain or isolate: My 235/80 ; setting: 21 d ; read-out: MIC ; value: 16 µM
C=C(C)C1COc2cc(OC)c3c(c2C1)OC(c1ccccc1)=CC3OC ; organism: Dengue virus ; strain or isolate: Type 2/Mexican isolate ; cells: LLC-MK2 ; method: plaque count ; read-out: inhibition ; dose: 25 µM ; value: 59.1%
Cc1ccc(C(=O)Nc2ccc(S(=O)(=O)O)c3cc(S(=O)(=O)O)cc(S(=O)(=O)O)c23)cc1NC(=O)c1cccc(NC(=O)Nc2cccc(C(=O)Nc3cc(C(=O)Nc4ccc(S(=O)(=O)O)c5cc(S(=O)(=O)O)cc(S(=O)(=O)O)c45)ccc3C)c2)c1 ; organism: Adenovirus ; strain or isolate: TYPE 3 ; cells: Human embryonic lung cells ; method: cytopathic effect ; read-out: inhibition ; dose: 5 µg/mL ; value: 0%
Nc1nc2c(ncn2COC(CO)CO)c(=O)[nH]1 ; organism: Human cytomegalovirus ; strain or isolate: C9207 ; cells: MRC-5 ; method: hybridisation ; read-out: EC50 ; value: 0.15 µM
CCC(C)n1ncn(-c2ccc(N3CCN(c4ccc(OC[C@H]5CO[C@](Cn6cncn6)(c6ccc(Cl)cc6Cl)O5)cc4)CC3)cc2)c1=O ; organism: Aspergillus fumigatus ; strain or isolate: AF293 ; changes: sakA ; method: broth dilution ; read-out: inhibition ; dose: 2 µg/mL ; value: 99.85%
OC[C@H]1O[C@@H](n2c(Cl)nc3cc(Cl)c(Cl)cc32)[C@H](O)[C@@H]1O ; organism: Human cytomegalovirus ; strain or isolate: C4 (D341E) ; method: plaque count ; read-out: EC50 ; value: 57 µM
NS(=O)(=O)O ; organism: Adenovirus ; strain or isolate: TYPE 3 ; cells: Human embryonic lung cells ; method: cytopathic effect ; read-out: inhibition ; dose: 10 µg/mL ; value: 0%
Nc1nc2c(ncn2COC(CO)CO)c(=O)[nH]1 ; organism: Cytomegalovirus ; cells: HEL ; read-out: inhibition ; dose: 0.3 µM ; value: 53%
CC[C@H]1OC(=O)[C@H](C)[C@@H](OC2C[C@@](C)(OC)[C@@H](O)[C@H](C)O2)[C@H](C)[C@@H](O[C@@H]2O[C@H](C)C[C@H](N(C)C)[C@H]2O)C(C)(O)C[C@@H](C)/C(=N\OCC2CCCCC2)[C@H](C)[C@@H](O)[C@]1(C)O ; organism: Mycobacterium avium complex ; strain or isolate: 20039 (clarithromycin-susceptible) ; read-out: MIC ; value: 1.56 µg/mL
CC1CCC(C(=O)N(c2cc(C#CC(C)(C)C)sc2C(=O)O)C2CCC(O)CC2)CC1 ; organism: Hepatitis C virus ; strain or isolate: H77 (GT1a) ; changes: M423I ; cells: Huh7 ; method: luciferase ; read-out: fold resistance ; value: 10.5
O=c1oc2ccc(Br)cc2c(=S)n1-c1ccc(Br)cc1 ; organism: Mycobacterium kansasii ; strain or isolate: My 235/80 ; setting: 14 d ; read-out: MIC ; value: 4 µM
O=S(=O)([O-])c1ccc(O)cc1 ; organism: Herpes simplex virus ; cells: Human amnion AV3 cells ; method: cytopathic effect ; read-out: inhibition ; dose: 5 µg/mL ; value: 0%
Cn1cc(C(=O)NCc2ccc(Cl)cc2)c(=O)c2cc(CN3CCOCC3)ccc21 ; organism: Varicella zoster virus ; strain or isolate: DN zoster isolate ; cells: HFF ; method: plaque count ; read-out: inhibition ; dose: 8.5 µM ; value: 90%
Cc1ccc(-n2c(=S)oc3ccc(F)cc3c2=S)cc1 ; organism: Mycobacterium kansasii ; strain or isolate: 6509/96 ; setting: 21 d ; read-out: MIC ; value: 4 µM
CCCCCCNNC(=O)O[C@H]1[C@H](O[C@@H]2[C@@H](C)[C@H](O[C@H]3C[C@@](C)(OC)[C@@H](OC(C)=O)[C@H](C)O3)[C@@H](C)C(=O)O[C@H](CC)[C@@](C)(O)[C@H](O)[C@@H](C)/C(=N/OCCCC3CCCCC3)[C@H](C)CC2(C)O)O[C@H](C)C[C@@H]1N(C)C ; organism: Mycobacterium avium complex ; strain or isolate: 20039 (clarithromycin-susceptible) ; read-out: MIC ; value: 1.56 µg/mL
O=S(=O)(O)c1ccc2cc(O)c(S(=O)(=O)O)cc2c1 ; organism: Rhinovirus ; cells: Human embryonic lung cells ; method: cytopathic effect ; read-out: inhibition ; dose: 50 µg/mL ; value: 70%
CCCO/N=C1\[C@H](C)CC(C)(O)[C@H](O[C@@H]2O[C@H](C)C[C@H](N(C)C)[C@H]2O)[C@@H](C)[C@H](OC2C[C@@](C)(OC)[C@@H](O)[C@H](C)O2)[C@@H](C)C(=O)O[C@H](CC)[C@@](C)(O)[C@H](O)[C@H]1C ; organism: Mycobacterium avium complex ; strain or isolate: 20096 (clarithromycin-resistant) ; read-out: MIC ; value: >50 µg/mL
CC1(C)S[C@@H]2[C@H](NC(=O)[C@H](N)c3ccc(O)cc3)C(=O)N2[C@H]1C(=O)O ; organism: Streptococcus pneumoniae ; strain or isolate: 595 strains ; read-out: MIC50 ; value: ≤0.06 µg/mL
CC[C@H]1OC(=O)[C@H](C)[C@@H](O[C@H]2C[C@@](C)(OC)[C@@H](OC(C)=O)[C@H](C)O2)[C@H](C)[C@@H](O[C@@H]2O[C@H](C)C[C@H](N(C)C)[C@H]2OC(=O)NN(C)C)C(C)(O)C[C@@H](C)/C(=N\OCCCC2CCCCC2)[C@H](C)[C@@H](O)[C@]1(C)O ; organism: Mycobacterium avium complex ; strain or isolate: 20039 (clarithromycin-susceptible) ; read-out: MIC ; value: 1.56 µg/mL
Cc1ccc(-n2c(=O)oc3ccc(C)cc3c2=S)cc1 ; organism: Mycobacterium kansasii ; strain or isolate: 6509/96 ; setting: 14 d ; read-out: MIC ; value: 2 µM

Repeating the final 4 entries:

structure,organism,strain or isolate,changes,cells,method,setting,read-out,dose,value
CCCO/N=C1\[C@H](C)CC(C)(O)[C@H](O[C@@H]2O[C@H](C)C[C@H](N(C)C)[C@H]2O)[C@@H](C)[C@H](OC2C[C@@](C)(OC)[C@@H](O)[C@H](C)O2)[C@@H](C)C(=O)O[C@H](CC)[C@@](C)(O)[C@H](O)[C@H]1C,Mycobacterium avium complex,20096 (clarithromycin-resistant),-,-,-,-,MIC,-,>50 µg/mL
CC1(C)S[C@@H]2[C@H](NC(=O)[C@H](N)c3ccc(O)cc3)C(=O)N2[C@H]1C(=O)O,Streptococcus pneumoniae,595 strains,-,-,-,-,MIC50,-,≤0.06 µg/mL
CC[C@H]1OC(=O)[C@H](C)[C@@H](O[C@H]2C[C@@](C)(OC)[C@@H](OC(C)=O)[C@H](C)O2)[C@H](C)[C@@H](O[C@@H]2O[C@H](C)C[C@H](N(C)C)[C@H]2OC(=O)NN(C)C)C(C)(O)C[C@@H](C)/C(=N\OCCCC2CCCCC2)[C@H](C)[C@@H](O)[C@]1(C)O,Mycobacterium avium complex,20039 (clarithromycin-susceptible),-,-,-,-,MIC,-,1.56 µg/mL
Cc1ccc(-n2c(=O)oc3ccc(C)cc3c2=S)cc1,Mycobacterium kansasii,6509/96,-,-,-,14 d,MIC,-,2 µM